Reference: patent US20080199882A1, “METHOD FOR DETECTION OF BIOMARKERS FOR EXPOSURE TO STACHYBOTRYS” (published 2008)

What was measured:
[1] = Amino acid-satratoxin G adducts in pronase digests of rat serum, MALDI-TOF MS; conditions: sera collected six hours after intra-tracheal instillation of spores, exhaustive proteolysis
[2] = Satratoxin G ELISA of whole blood after intratracheal instillation of S. chartarum spores

satratoxin G
satratoxin G amino acid adducts in serum [1]: cysteinyl, lysyl and histydyl satratoxin G adducts were detected | time for level of free toxin in blood to decrease below the detection limit ([2]; 7 d old rat pups, intra-tracheal 4.0×10^5 spores/gm body weight, ethanol extracts of whole blood, ELISA detection limit 0.1 ng/ml): ≤ 15 min | satratoxin G recovered in the blood ([2]; rat pups, equivalent satratoxin G dose 0.4 μgm/gm body wt, sacrificed immediately following spore instillation): about 0.13%
